Fitness effects across NS2B and the NS3 protease domain of Zika virus

Source: Ni et al. 2025 (doi:10.1038/s41467-025-63602-z), supplementary data.

Protein: NS2B and the protease part of NS3 of Zika virus strain MR766. Positions count along the chain below; NS2B spans 2-131 and NS3 starts at 132.
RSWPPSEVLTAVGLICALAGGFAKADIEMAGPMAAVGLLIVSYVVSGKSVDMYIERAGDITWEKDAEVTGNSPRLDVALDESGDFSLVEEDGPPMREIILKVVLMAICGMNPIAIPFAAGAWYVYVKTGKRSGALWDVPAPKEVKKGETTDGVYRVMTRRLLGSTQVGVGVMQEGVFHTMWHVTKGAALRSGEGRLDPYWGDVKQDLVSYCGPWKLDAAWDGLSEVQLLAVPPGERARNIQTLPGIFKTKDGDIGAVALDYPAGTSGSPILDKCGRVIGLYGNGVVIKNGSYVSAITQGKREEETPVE

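Libraries of single mutants were passaged as virus pools on Huh-7.5 cells. The effect is the change in frequency of a mutant, normalised to wild type, as a mean of three replicate libraries (two for positions 207-308). The aim was to find sites where inhibitor-binding pockets cannot change.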

Values are log2 effects on growth: 0 is wild type, lower means poorer growth. A change reads original residue, position, new residue. This list holds changes to glycine only.

- I60G = -7.09
- T61G = -0.71
- W62G = -7.76
- E63G = -4.50
- K64G = -2.53
- D65G = -1.88
- A66G = -7.56
- E67G = -5.24
- V68G = -7.28
- T69G = -2.85
- N71G = -2.31
- S72G = -7.73
- P73G = -6.85
- R74G = -7.51
- L75G = -7.65
- D76G = -7.69
- V77G = -7.59
- A78G = -7.57
- L79G = -7.04
- D80G = -7.05
- E81G = -6.60
- S82G = -5.46
- D84G = -7.21
- F85G = -5.76
- S86G = -6.84
- L87G = -7.72
- V88G = -6.26
- E89G = 1.06
- E90G = -0.33
- D91G = -0.85
- P93G = -4.67
- P94G = -3.29
- M95G = -3.93
- R96G = -4.93
- E97G = -6.66
- I98G = -6.81
- I99G = -1.40
- L100G = -2.09
- K101G = -6.83
- V102G = 0.23
- V103G = -2.18
- L104G = -6.54
- M105G = -6.77
- A106G = -1.10
- I107G = -3.57
- C108G = -3.65
- M110G = -2.91
- N111G = -5.91
- P112G = -5.77
- I113G = -3.64
- A114G = -1.55
- I115G = -6.15
- P116G = -6.33
- F117G = -5.78
- A118G = -2.46
- A119G = -2.31
- A121G = -1.81
- W122G = -6.42
- Y123G = -4.25
- V124G = -4.02
- Y125G = -6.73
- V126G = -1.66
- K127G = -0.81
- T128G = -0.45

4 of these entries, quoted again:

substitution,log2 effect
D76G,-7.69
K64G,-2.53
I60G,-7.09
D80G,-7.05

Six mutants with high scores were retested singly and none clearly outgrew wild type, so positive values are not proof of better growth. The region was split into three libraries (1-103, 104-206, 207-308). The authors count -1 or higher as tolerated. Position 1 is the last residue of NS2A.